Laboratory results from publication PMC4328002 (Natural Products and Bioprospecting, 2015).

Key:
[1] = system: HL-60 (promyelocytic leukemia); assay: MTT cytotoxicity assay, HL-60; format: cell-based, human; details: read-out: Cancer cell line IC50, HL-60; HL-60, MTT, 48 h, Table 2
[2] = system: HL-60, SMMC-7721, A549, MCF-7 and SW-480 human cancer cell lines; assay: MTT cytotoxicity assay, five human cancer cell lines taken together; format: cell-based; details: read-out: IC50 values across the five cancer cell lines; HL-60, SMMC-7721, A549, MCF-7, SW-480; 48-h treatment; summary over all five lines
[3] = system: MCF-7 (breast adenocarcinoma); assay: MTT cytotoxicity assay, MCF-7; format: cell-based, human; details: read-out: Cancer cell line IC50, MCF-7; MCF-7, MTT, 48 h, Table 2
[4] = system: SMMC-7721 (hepatocarcinoma); assay: MTT cytotoxicity assay, SMMC-7721; format: cell-based, human; details: read-out: Cancer cell line IC50, SMMC-7721; SMMC-7721, MTT, 48 h, Table 2
[5] = system: BEAS-2B normal cell line (human bronchial epithelial cell); assay: MTT cytotoxicity assay, BEAS-2B normal cell line; details: read-out: Cancer cell line IC50, BEAS-2B, selectivity experiment, Table 3
A549 (lung carcinoma) = assay: MTT cytotoxicity assay, A549; format: cell-based, human
[6] = system: SW-480 (colon adenocarcinoma); assay: MTT cytotoxicity assay, SW-480; format: cell-based, human; details: read-out: Cancer cell line IC50, SW480, 48 h, Table 2
[7] = read-out: Cancer cell line IC50, A549, 48 h, Table 2
[8] = read-out: Cancer cell line IC50, A549, selectivity experiment, Table 3

| SMILES | IC50 [1] [nM] | IC50 [2] [nM] | IC50 [3] [nM] | IC50 [4] [nM] | IC50 [5] [nM] | IC50 (A549 (lung carcinoma); [7]) [nM] | IC50 (A549 (lung carcinoma); [8]) [nM] | IC50 [6] [nM] |
| --- | --- | --- | --- | --- | --- | --- | --- | --- |
| C/C=C\C(=O)O[C@@H]1C[C@H]2O[C@@H]3C=C(C)CC[C@]3(C)[C@]1(C)[C@]21CO1 | 100 | < 3500 | 230 | 150 | 110 | 140 | 150 | 150 |
| CC1=C[C@H]2O[C@@H]3C[C@@H](O)[C@](C)([C@@]2(C)CC1)[C@]31CO1 | 1530 | < 3500 | 3430 | 2140 | 1060 | 1010 | 1540 | 1870 |
| C/C=C\C(=O)O[C@@H]1C[C@H]2O[C@@H]3C=C(C)C(O)C[C@]3(C)[C@]1(C)[C@]21CO1 (stereo partly drawn) | 1680 | < 3500 | 540 | 450 | 450 | 400 | 560 | 350 |

Read-outs that look alike come from different tables or passages of the source.
